A mixed list of measured activities; the numbers were collected in NIAID ChemDB.

All rows: growth or infection tests; species: Aspergillus niger; read-out: zone

Zone: diameter of growth inhibition. Rows are shuffled and stem from different studies.

Cc1ccc2[nH]c3nc(-n4[nH]c(=O)c5ccccc5c4=O)c4ccccc4c3c2c1 ; method: agar diffusion / visual reading ; strain: MTCC 281 ; tested at: 12.5 µg/mL ; result: 9 mm
Cc1c(Cc2ccc(Cl)cc2)nc(SCCN2CCCC2)[nH]c1=O ; method: agar diffusion / agar ; strain: NRRL 599 ; tested at: 200 µg/disc ; result: <10 mm
Cc1nc2ccccc2n(CC(=O)NN2C(=O)CSC2c2ccc(Cl)cc2)c1=O ; tested at: 100 µg/mL ; result: 19 mm
Cc1ccc(S(=O)(=O)CNc2oc3[nH]c(=O)[nH]c(=O)c3c2-c2ccsc2C=O)cc1 ; method: agar diffusion / agar ; tested at: 100 µg/mL ; result: 3 mm
COc1ccc2[nH]c3c(c2c1)c1ccccc1c1nnc(C(C)(C)C)n13 ; method: agar diffusion / visual reading ; strain: MTCC 281 ; tested at: 3.125 µg/mL ; result: 10 mm
Cc1ccc(S(=O)(=O)CNc2oc3[nH]c(=O)[nH]c(=O)c3c2-c2ccc([N+](=O)[O-])cc2)cc1 ; method: agar diffusion / agar ; tested at: 50 µg/mL ; result: 3 mm
COc1ccc(C2N=C(SC)NC(N)=C2C#N)cc1 ; method: agar diffusion ; strain: MTCC 282 ; tested at: 50 µg/mL ; result: 14 mm
Cc1c(Cc2ccc(Cl)cc2)nc(SCCCN2C(=O)c3ccccc3C2=O)[nH]c1=O ; method: agar diffusion / agar ; strain: NRRL 599 ; tested at: 200 µg/disc ; result: 18 mm
Cc1nc2ccccc2n(CC(=O)NN2C(=O)CSC2c2ccccc2O)c1=O ; tested at: 100 µg/mL ; result: 13 mm
COc1ccc(C=NNC(=O)c2snnc2C(F)(F)F)cc1 ; method: agar diffusion / agar ; strain: MTCC 1344 ; tested at: 150 µg/mL ; result: 0 mm
CC(C)(C)c1nnc2c3ccccc3c3c4cc(Cl)ccc4[nH]c3n12 ; method: agar diffusion / visual reading ; strain: MTCC 281 ; tested at: 12.5 µg/mL ; result: 9 mm
CC(=Nc1cccc2cccc(N=C(C)c3c(O)ccc4c(C)cc(=O)oc34)c12)c1c(O)ccc2c(C)cc(=O)oc12 ; strain: MTCC 1881 ; tested at: 500 µg/mL ; result: 18 mm
CCOC(=O)Cn1c(C(F)(F)F)nc2cc(C(=O)c3ccccc3)ccc21 ; strain: MTCC 1344 ; tested at: 500 µg/mL ; result: 800 mm
CCc1c(Cc2ccc(Cl)cc2)nc(SCCN2CCCCC2)[nH]c1=O ; method: agar diffusion / agar ; strain: NRRL 599 ; tested at: 200 µg/disc ; result: 21 mm
N#Cc1ccc(Nc2nc(Oc3ccnc4ccccc34)nc(N3CCN(c4ccccc4)CC3)n2)cc1C(F)(F)F ; method: agar ; strain: MTCC 282 ; tested at: 100 µg/mL ; result: <10 mm
Cc1nc2ccccc2n(CC(=O)NN2C(=O)CSC2c2ccc(N(C)C)cc2)c1=O ; tested at: 50 µg/mL ; result: 11 mm
CC(C)n1c(/C=C/C=Nn2cn[nH]c2=S)c(-c2ccc(F)cc2)c2ccccc21 ; tested at: 500 µg/mL ; result: 13 mm
N#Cc1ccc(Nc2nc(Oc3ccnc4ccccc34)nc(N3CCN(Cc4ccccc4)CC3)n2)cc1C(F)(F)F ; method: agar ; strain: MTCC 282 ; tested at: 100 µg/mL ; result: <10 mm
COc1ccc2nc3n4c(c5ccccc5c-3c2c1)NN=C(c1ccc(C)cc1)C4 ; method: agar diffusion / visual reading ; strain: MTCC 281 ; tested at: 12.5 µg/mL ; result: 8 mm
Cc1nc2ccccc2n(CC(=O)NN2C(=O)CSC2c2ccc([N+](=O)[O-])cc2)c1=O ; tested at: 50 µg/mL ; result: 13 mm
O=[N+]([O-])c1ccc2nc(C(F)(F)C(F)(F)F)n(CCCCCl)c2c1 ; strain: MTCC 1344 ; tested at: 500 µg/mL ; result: 700 mm
Cc1ccc(-c2c(NCS(=O)(=O)c3ccc(C)cc3)oc3[nH]c(=O)[nH]c(=O)c23)cc1 ; method: agar diffusion / agar ; tested at: 50 µg/mL ; result: 0 mm
N#Cc1ccc(Nc2nc(Oc3ccnc4ccccc34)nc(N3CCN(c4ccccn4)CC3)n2)cc1C(F)(F)F ; method: agar ; strain: MTCC 282 ; tested at: 100 µg/mL ; result: <10 mm
O=C(NN=C1CCCC1)c1snnc1C(F)(F)F ; method: agar diffusion / agar ; strain: MTCC 1344 ; tested at: 100 µg/mL ; result: 0 mm
CC1(C)CC(=O)C2=C(C1)OC1=C(C(=O)CC(C)(C)C1)C2c1cccc(C2C3=C(CC(C)(C)CC3=O)OC3=C2C(=O)CC(C)(C)C3)c1 ; method: agar diffusion ; strain: ATCC 10949 ; tested at: 40 µg/disc ; result: 0 mm
Clc1ccc2nc3n4c(c5ccccc5c-3c2c1)NN=C(c1ccccc1)C4 ; method: agar diffusion / visual reading ; strain: MTCC 281 ; tested at: 50 µg/mL ; result: 6 mm
CS(=O)(=O)c1nc(N)c(C#N)c(-c2ccc(O)cc2)n1 ; method: agar diffusion ; strain: MTCC 282 ; tested at: 50 µg/mL ; result: 19 mm
OC(Cn1cncn1)(Cn1cncn1)c1ccc(F)cc1F ; tested at: 30 µg/mL ; result: 100 mm
O=C1CCCC2=C1C(c1cccc(C3C4=C(CCCC4=O)OC4=C3C(=O)CCC4)c1)C1=C(CCCC1=O)O2 ; method: agar diffusion ; strain: ATCC 10949 ; tested at: 20 µg/mL ; result: 0 mm
CSC1=NC(/C=C/c2ccccc2)C(C#N)=C(N)N1 ; method: agar diffusion ; strain: MTCC 282 ; tested at: 100 µg/mL ; result: 16 mm
COc1ccc(C2=NNc3c4ccccc4c4c5cc(Cl)ccc5nc-4n3C2)cc1 ; method: agar diffusion / visual reading ; strain: MTCC 281 ; tested at: 3.125 µg/mL ; result: 8 mm
O=C(NN=C1CCCCCC1)c1snnc1C(F)(F)F ; method: agar diffusion / agar ; strain: MTCC 1344 ; tested at: 100 µg/mL ; result: 0 mm
CS(=O)(=O)c1nc(N)c(C#N)c(-c2ccccc2[N+](=O)[O-])n1 ; method: agar diffusion ; strain: MTCC 282 ; tested at: 50 µg/mL ; result: 19 mm
CCOC(=O)Cn1c(C(F)(F)F)nc2ccc(C(=O)c3ccccc3)cc21 ; strain: MTCC 1344 ; tested at: 500 µg/mL ; result: 700 mm
COc1ccc(C2=NNc3c4ccccc4c4c5cc(C)ccc5nc-4n3C2)cc1 ; method: agar diffusion / visual reading ; strain: MTCC 281 ; tested at: 12.5 µg/mL ; result: 8 mm
CCOC(=O)Cn1c(C(F)(F)C(F)(F)F)nc2ccc(C(=O)c3ccccc3)cc21 ; strain: MTCC 1344 ; tested at: 500 µg/mL ; result: 900 mm
CCc1c(Cc2ccc(Cl)cc2)nc(SCCN2C(=O)c3ccccc3C2=O)[nH]c1=O ; method: agar diffusion / agar ; strain: NRRL 599 ; tested at: 200 µg/disc ; result: <10 mm
CCOC(=O)Cn1c(C(F)(F)C(F)(F)F)nc2cc(C(=O)c3ccccc3)ccc21 ; strain: MTCC 1344 ; tested at: 500 µg/mL ; result: 1000 mm
O=C(NN=Cc1ccc(Br)cc1)c1snnc1C(F)(F)F ; method: agar diffusion / agar ; strain: MTCC 1344 ; tested at: 150 µg/mL ; result: 0 mm

For reference, 4 entries again:

CCc1c(Cc2ccc(Cl)cc2)nc(SCCN2C(=O)c3ccccc3C2=O)[nH]c1=O ; method: agar diffusion / agar ; strain: NRRL 599 ; tested at: 200 µg/disc ; result: <10 mm
Cc1nc2ccccc2n(CC(=O)NN2C(=O)CSC2c2ccc([N+](=O)[O-])cc2)c1=O ; tested at: 50 µg/mL ; result: 13 mm
OC(Cn1cncn1)(Cn1cncn1)c1ccc(F)cc1F ; tested at: 30 µg/mL ; result: 100 mm
O=C1CCCC2=C1C(c1cccc(C3C4=C(CCCC4=O)OC4=C3C(=O)CCC4)c1)C1=C(CCCC1=O)O2 ; method: agar diffusion ; strain: ATCC 10949 ; tested at: 20 µg/mL ; result: 0 mm